Results of unrelated studies side by side (data: NIAID ChemDB).

Common to all: whole-cell or culture tests; agent: Cowpox virus; read-out: EC50

An empty or dashed field is not shown. Conditions beyond the fields shown may differ between rows. ECn is the concentration giving n% inhibition of infection, replication or growth.

smiles,strain,cell line,result
CC1OP(=O)(OC[C@H]2O[C@@H](n3cc(/C=C/Br)c(=O)[nH]c3=O)C[C@@H]2O)Oc2cccc(Cl)c21,-,VERO 76,>99 µg/mL
Nc1ccn(C[C@@H](CO)OCP(=O)(O)O)c(=O)n1,-,BSC,31 µM
Nc1nc2c(ncn2COCCO)c(=O)[nH]1,-,HFF,>444 µM
O=c1[nH]cnc2c1ncn2[C@H]1CC[C@@H](CO)O1,-,HFF,>300 µM
Nc1ccn(C[C@@H](CO)OCP(=O)(O)O)c(=O)n1,Brighton strain wild type,VERO 76,45 µM
Nc1ccn(C[C@@H](CO)OCP(=O)(O)O)c(=O)n1,Brighton,HFF,44.7 µM
O=c1cnn([C@@H]2O[C@H](CO)[C@@H](O)[C@H]2O)c(=O)[nH]1,-,3T3,19 µM
Cc1cccc2c1OP(=O)(OCCOCn1cnc3c(=O)[nH]c(N)nc31)OC2,-,VERO 76,>99 µg/mL
Nc1ncnc2c1ncn2C[C@@H](CO)OCP(=O)(O)O,Brighton,HEL,0.23 µg/mL
Nc1ccn([C@@H]2CS[C@H](CO)O2)c(=O)n1,-,HFF,>436 µM
CC(C)c1nc(CN(C)C(=O)N[C@H](C(=O)N[C@@H](Cc2ccccc2)C[C@H](O)[C@H](Cc2ccccc2)NC(=O)OCc2cncs2)C(C)C)cs1,-,HFF,>300 µM
NC(=O)c1ncn([C@@H]2O[C@H](CO)[C@@H](O)[C@H]2O)n1,Brighton strain wild type,VERO 76,625 µM
Nc1nc(NC2CC2)c2ncn([C@H]3C=C[C@@H](CO)C3)c2n1,-,HFF,>300 µM
COc1c(C)c2c(c(O)c1C/C=C(\C)CCC(=O)O)C(=O)OC2,Brighton strain wild type,VERO 76,3.2 µM
Cc1cn([C@H]2C=C[C@@H](CO)O2)c(=O)[nH]c1=O,-,HFF,>300 µM
Nc1nc(NCC(F)(F)F)c2ncn(CCOCP(=O)(O)O)c2n1,Brighton,HFF,>270 µM
O=C1Nc2ccc(Cl)cc2[C@@](C#CC2CC2)(C(F)(F)F)O1,-,HFF,>300 µM
O=c1[nH]cnc2c1ncn2[C@H]1CC[C@@H](CO)O1,-,HFF,>423 µM
Nc1ccn(C[C@@H](CO)OCP(=O)(O)O)c(=O)n1,-,VERO 76,92 µM

Repeating the final 2 entries:

smiles	strain	cell line	result
O=c1[nH]cnc2c1ncn2[C@H]1CC[C@@H](CO)O1	-	HFF	>423 µM
Nc1ccn(C[C@@H](CO)OCP(=O)(O)O)c(=O)n1	-	VERO 76	92 µM